Compound potency records, mixed from different reports. Data source: NIAID ChemDB in PubChem.

Common to all: whole-cell or culture tests; agent: HIV-1; endpoint: EC50

Rows are shuffled and stem from different studies.

| structure | changes | conditions | strain | cells | value |
|---|---|---|---|---|---|
| CC(C)(C)NC(=O)c1ccccc1SC[C@@H](O)[C@H](Cc1ccccc1)NC(=O)[C@H](CC(N)=O)NC(=O)c1ccc2ccccc2n1 |  |  |  | CEM | 0.48 µg/mL |
| O=C1O[C@H]2[C@@H]3OC(=O)c4cc(O)c(O)c(O)c4-c4c(cc(O)c(O)c4O)C(=O)OC[C@H]2O[C@@H](OC(=O)c2cc(O)c(O)c(O)c2)[C@@H]3OC(=O)c2cc(O)c(O)c3c2[C@@H]2C1=CC(=O)[C@](O)(O3)C2(O)O | RT-L100I |  | NNRTI-resistant (RT L100I) ARP1016 | MAGI | 1.62 µg/mL |
| CC(C)(C)NC(=O)[C@@H]1C[C@@H]2CCCC[C@@H]2CN1C[C@@H](O)[C@H](Cc1ccccc1)NC(=O)[C@@H](NC(=O)c1ccccc1)C(C)(C)S(C)(=O)=O |  |  |  |  | 0.03 µM |
| O=C(O)P(=O)(O)O | TAM2 (D67N K70R T215F K219Q) |  | HXB2 | MT-2 | 10.5 µM |
| C[C@H](Cn1cnc2c(N)ncnc21)OCP(=O)(O)O |  |  | NL4-3 | Jurkat cells | 11.6 µM |
| Cc1nnc(SCC(=O)Nc2ccc(S(N)(=O)=O)cc2Cl)n1-c1ccc(Cl)c2ccccc12 | Y188L |  |  | HeLa | 0.068 µM |
| Cc1cn([C@@H]2O[C@H](CO[Si](C)(C)C(C)(C)C)[C@@]3(OS(=O)(=O)C=C3N)[C@H]2O[Si](C)(C)C(C)(C)C)c(=O)[nH]c1=O | RT-Y181C |  | UC781-RS(RT-Y181C |  | >10 µM |
| Nc1ncnc2c1ncn2CCOCP(=O)(O)O |  |  | HE | MT-4 | 16 µM |
| Cc1nc(CCCCCCC(=O)c2ccccc2)n2nc(-n3cccn3)ccc12 |  |  | RF | MT-4 | >25 µM |
| CCN1c2ncc(NCc3ccc(OCP(=O)(O)O)cc3)cc2C(=O)N(C)c2cccnc21 | Y181C |  |  |  | >5 µM |
| Cc1nc(CCCCCCC(=O)c2ccccc2)n2nc(-n3ccnc3C)ccc12 |  |  | RF | MT-4 | 0.7 µM |
| CC(=O)Oc1ccc(/C=C/C(=O)O[C@@H](C(=O)O)[C@@H](OC(=O)/C=C/c2ccc(OC(C)=O)c(OC(C)=O)c2)C(=O)O)cc1OC(C)=O |  |  | IIIB | MT-4 | 4 µM |
| CCO/N=C(\c1ccc(Br)cc1)C1CCN(C2(C)CCN(C(=O)c3c(C)cc[n+]([O-])c3C)CC2)CC1 |  |  | ADA-M Clinical isolates | PBMC | <0.025 µM |
| CC(C)=CCOc1cc(NC(=S)c2ccsc2C)ccc1Cl | RT-Y181C |  | UC781-RS(RT-Y181C |  | 0.3 µM |
| CC(=O)N[C@H](C(=O)N[C@@H](Cc1ccccc1)[C@H](O)CN1C[C@H]2CCCC[C@H]2C[C@H]1C(=O)NC(C)(C)C)C(C)(C)S(C)(=O)=O |  |  |  |  | 0.056 µM |
| CC(C)=CCOc1cc(NC(=S)c2ccoc2C)ccc1Cl | RT-Y181C |  | UC781-RS(RT-Y181C |  | 1 µM |
| CC(C)(C)NC(=O)[C@@H]1C[C@@H]2CCCC[C@@H]2CN1C[C@@H](O)[C@H](Cc1ccccc1)NC(=O)[C@H](CC(N)=O)NC(=O)c1ccc2ccccc2n1 | L10I G48V I54V A71V I84V L90M SQV resistant |  | NL4-3 | MT-4 | >1 µM |
| CCC[C@@H](c1ccc(C(F)(F)F)cc1)N1CCN(C2(C)CCN(C(=O)c3c(C)ncnc3C)CC2)C[C@@H]1C |  |  | 301657 Clinical isolates | PBMC | <0.00009 µM |
| Cc1ccc(-n2c(C)nnc2SCC(=O)Nc2ccccc2Br)c2ccccc12 | Y188L |  |  | HeLa | 0.069 µM |
| CC(C)CN(C[C@@H](O)[C@H](Cc1ccccc1)NC(=O)O[C@H]1CCOC1)S(=O)(=O)c1ccc(N)cc1 | L23I E34Q K43I M46I I50L G51A L63P A71V V82A T91A ATV resistant |  | NL4-3 | MT-4 | >1 µM |
| O=C(O)C(=Cc1ccc(O)c(O)c1)C(=Cc1ccc(O)c(O)c1)C(=O)O |  |  |  |  | 4.4 µM |
| CCc1ccc(-n2c(C)nnc2SCC(=O)Nc2ccccc2Br)c2ccccc12 | Y188L |  |  | HeLa | 0.058 µM |
| O=c1[nH]cnc2c1ncn2[C@H]1CC[C@@H](CO)O1 |  |  | NL4-3 | Primary T lymphocytes | 0.481 µM |
| O=C(/C=C/c1ccc(O)c(O)c1)O[C@@H]1CC(O)(C(=O)O)C[C@@H](OC(=O)/C=C/c2ccc(O)c(O)c2)C1O |  |  |  | MT-2 | 1.9 µM |
| Nc1nc2c(ncn2CCOCP(=O)(O)O)c(=O)[nH]1 |  |  | HE | MT-4 | 0.26 µM |
| Cc1cn([C@H]2C=C[C@@H](CO)O2)c(=O)[nH]c1=O |  |  | NL4-3 | Primary T lymphocytes | 1.245 µM |
| O=C(OC[C@@H]1OC(=O)c2ccccc21)c1ccccc1 |  |  |  | CEM | >10 µM |
| CO[P@](=O)(c1cc(C)cc(/C=C/C#N)c1)c1c(C(N)=O)[nH]c2ccc(Cl)c(F)c12 |  |  | BH10 | MT-2 | 0.0009 µM |
| Cc1nnc(SCC(=O)Nc2ccc(S(N)(=O)=O)cc2Cl)n1-c1ccc(N(C)C)c2ccccc12 | Y188L |  |  | HeLa | 0.087 µM |
| CC(C)CN(C[C@@H](O)[C@H](Cc1ccccc1)NC(=O)O[C@H]1CO[C@H]2OCC(F)(F)[C@H]21)S(=O)(=O)c1ccc(N)cc1 | L10I K14R L33I M36I M46I F53I K55R I62V L63P A71V G73S V82A L90M I93L | clinical isolate, multidrug-resistant | Clinical isolate | PBMC | 0.011 µM |
| O=C(/C=C/c1ccc(O)c2c1[C@H](C(=O)O[C@H](Cc1ccc(O)c(O)c1)C(=O)O)[C@@H](c1ccc(O)c(O)c1)O2)O[C@H](Cc1ccc(O)c(O)c1)C(=O)O |  |  |  | H9 | 6.9 µM |
| Cc1nc(CCCCCCC(O)c2ccccc2)n2nc(-n3ccnc3)ccc12 |  |  | RF | MT-4 | <0.03 µM |
| Nc1ccn([C@H]2CC[C@@H](CO)O2)c(=O)n1 |  |  | NL4-3 | MT-4 | 0.292 µM |
| CC(C)(C)NC(=O)[C@@H]1C[C@@H]2CCCC[C@@H]2CN1C[C@@H](O)[C@H](Cc1ccccc1)NC(=O)[C@@H](NC(=O)c1ccc2ccccc2n1)C(C)(C)S(C)(=O)=O |  |  |  |  | 0.002 µM |
| Cc1ccnc2c1NC(=O)c1cccnc1N2C1CC1 |  |  | RF | MT-2 | 0.018 µM |
| Cc1occc1C(=S)Nc1ccc(Cl)c(/C=N/OC(C)(C)C)c1 | RT-Y181C |  | UC781-RS(RT-Y181C |  | 0.9 µM |
| CC(C)(C)NC(=O)[C@@H]1C[C@@H]2CCCC[C@@H]2CN1C[C@@H](O)[C@H](Cc1ccccc1)NC(=O)[C@@H](NC(=O)COc1cccnc1)C(C)(C)S(C)(=O)=O | PR-K20R M46I L63P V82T I84V |  |  |  | 0.012 µM |

The last 3 rows once more:

Cc1ccnc2c1NC(=O)c1cccnc1N2C1CC1 ; strain: RF ; cells: MT-2 ; value: 0.018 µM
Cc1occc1C(=S)Nc1ccc(Cl)c(/C=N/OC(C)(C)C)c1 ; changes: RT-Y181C ; strain: UC781-RS(RT-Y181C ; value: 0.9 µM
CC(C)(C)NC(=O)[C@@H]1C[C@@H]2CCCC[C@@H]2CN1C[C@@H](O)[C@H](Cc1ccccc1)NC(=O)[C@@H](NC(=O)COc1cccnc1)C(C)(C)S(C)(=O)=O ; changes: PR-K20R M46I L63P V82T I84V ; value: 0.012 µM

ECn is the concentration giving n% inhibition of infection, replication or growth. Blank or dashed fields: not listed here.